Pooled drug test results. Numbers come from NIAID ChemDB, via PubChem.

Shared fields: growth or infection tests; organism: HIV-1

ECn: concentration that inhibits the pathogen or its effect by n%.

Nc1nc(=O)n([C@@H]2CS[C@H](CO)O2)cc1F ; changes: RT-K65R ; measure: EC50 ; strain: Site-directed mutant ; cell line: MT-2 ; method: cytopathic effect / XTT ; value: 8.5 µM
Cn1c(CN(CCN2CCCCC2)CC2CCCN(C3CCCC3)C2)nc2ccccc21 ; measure: EC50 ; strain: LAI ; cell line: MAGI ; method: β-galactosidase ; value: 1.2 µM
Cc1cc(C#N)cc(C)c1Oc1nc(Nc2ccc(C#N)cc2)nc(N)c1Br ; changes: E138A ; measure: EC50 ; strain: LAI ; cell line: TZM-bl ; value: 0.0029 µM
CC(C)(C)NC(=O)[C@@H]1CN(Cc2cccnc2)CCN1C[C@@H](O)C[C@@H](Cc1ccccc1)C(=O)N[C@H]1c2ccccc2C[C@H]1O ; measure: EC50 ; strain: NL4-3 ; cell line: MT-4 ; method: cytopathic effect / MTT ; value: 0.041 µM
Cc1cn([C@H]2C[C@H](N=[N+]=[N-])[C@@H](CO)O2)c(=O)[nH]c1=O ; measure: EC50 ; strain: M032690 ; cell line: PBMC ; method: p24 ; value: 0.11 µM
c1cc(CN2CCCNCCNCCCNCC2)ccc1CN1CCCNCCNCCCNCC1 ; measure: EC50 ; strain: 92TH001 CLADE E R5 ; cell line: PBMC ; method: p24 ; value: ~0.5 µM
Cc1cn([C@H]2C[C@H](N=[N+]=[N-])[C@@H](CO)O2)c(=O)[nH]c1=O ; measure: EC50 ; strain: 720 ; cell line: PBMC ; method: ELISA ; value: 0.01 µM
NC(=O)C(c1ccccc1)(c1ccccc1)[C@H]1CCCN(CCc2ccc3c(c2)CCC3)C1 ; measure: EC50 ; strain: NL4-3 ; cell line: MT-2 ; method: cytopathic effect / XTT ; value: 0.12 µM
Nc1ccn([C@H]2CC[C@@H](CO)O2)c(=O)n1 ; measure: EC50 ; strain: JR-CSF ; cell line: PBMC ; method: p24 ; value: 0.025 µM
Cc1cn([C@H]2C[C@H](N=[N+]=[N-])[C@@H](CO)O2)c(=O)[nH]c1=O ; changes: RT-V106A ; measure: EC50 ; strain: NL4-3 ; cell line: CEM + CEM-SS ; method: cytopathic effect / XTT ; value: 0.004 µM
Cc1cn([C@H]2C[C@H](N=[N+]=[N-])[C@@H](CO)O2)c(=O)[nH]c1=O ; measure: EC50 ; strain: ED ; cell line: CEM + CEM-SS ; method: cytopathic effect / MTT ; value: 0.001 µM
CC(C)CN(C[C@@H](O)[C@H](Cc1ccccc1)NC(=O)O[C@H]1CCOC1)S(=O)(=O)c1ccc(N)cc1 ; changes: PR-D30N N88D ; measure: EC50 ; strain: NL4-3 ; cell line: MT-4 ; method: p24 ; value: <0.04 µM
COC(=O)N[C@@H](Cc1c[nH]c2ccccc12)C(=O)NCCCC[C@@H](CO)N(CC(C)C)S(=O)(=O)c1ccc(N)cc1 ; measure: EC50 ; strain: NL4-3 WT ; cell line: HEK 293 + 293 Cells ; method: luciferase / recombinant virus assay ; value: 0.106 µM
COc1cc2oc(-c3ccc(O)cc3O)cc2c(OC)c1CC=C(C)C ; measure: EC50 ; strain: IIIB ; cell line: MT-4 ; method: MTT ; value: >50 µg/mL
NC(=O)C(c1ccccc1)(c1ccccc1)[C@H]1CCCN(CCc2ccc3c(c2)CCO3)C1 ; measure: EC50 ; strain: NL4-3 ; cell line: MT-2 ; method: cytopathic effect / XTT ; value: 0.78 µM
CC[C@H](C)[C@H](NC(=O)[C@H](C(C)C)[C@@H](O)[C@H](O)[C@H](CC1CCCCC1)NC(=O)[C@H](Cc1cnc[nH]1)NC(=O)COc1cccc2ccccc12)C(=O)NCc1ccccn1 ; measure: EC50 ; strain: IIIB ; cell line: H9 ; method: p24 ; value: 0.1 µM
Cc1ccnc2c1NC(=O)c1cccnc1N2C1CC1 ; changes: RT-Y181C ; measure: EC50 ; strain: NL4-3 ; cell line: CEM + CEM-SS ; method: cytopathic effect / XTT ; value: 1.3 µM
Cc1cn([C@H]2C[C@H](C#N)[C@@H](CO)O2)c(=O)[nH]c1=O ; measure: EC90 ; strain: RF ; cell line: C8166 ; method: cytopathic effect ; value: >100 µg/mL
CC(C)=CCc1cc(-c2oc3cc(O)c(CC=C(C)C)c(O)c3c(=O)c2O)ccc1O ; measure: EC50 ; strain: IIIB ; cell line: MT-4 ; method: cytopathic effect / MTT ; value: >100 µg/mL
Nc1ncc(CN(CCN2CCCCC2)CC2CCCN(C3CCCC3)C2)cn1 ; measure: EC50 ; strain: BaL ; cell line: MAGI ; method: β-galactosidase ; value: >10 µM
Cc1ccnc2c1NC(=O)c1cccnc1N2C1CC1 ; changes: Y181C ; measure: EC50 ; strain: NL4-3 ; cell line: C8166 ; method: antigen ; value: 4.896 µM
CC(C)(C)OC(=O)N[C@@H](Cc1ccccc1)[C@H](O)CNC[C@@H](O)[C@H](Cc1ccccc1)NC(=O)C(C)(O)C(C)(C)C ; measure: EC50 ; strain: RF ; cell line: MT-2 ; method: p24 ; value: 0.01 µM
COCOc1ccc(/C=C/C(=O)c2c(O)cc(OCOC)cc2OCOC)c(OCOC)c1 ; measure: EC50 ; strain: IIIB ; cell line: MT-4 ; method: cytopathic effect / MTT ; value: >20 µg/mL
O=C(O)P(=O)(O)O ; measure: EC50 ; strain: 7253 CLADE A CLADE A ; cell line: PBMC ; method: p24 ; value: 16.1 µM
CC(C)=CCc1c(O[C@@H]2C[C@H](CO)[C@@H](O)[C@H](O)[C@H]2O)cc(O)c2c(=O)c(O[C@@H]3O[C@@H](C)[C@H](O)[C@@H](O)[C@H]3O[C@@H]3O[C@H](CO)[C@@H](O)[C@H](O)[C@H]3O)c(-c3ccc(O)cc3)oc12 ; measure: EC50 ; strain: IIIB ; cell line: MT-4 ; method: cytopathic effect / MTT ; value: >500 µg/mL
Cc1cn([C@H]2C=C[C@@H](CO)O2)c(=O)[nH]c1=O ; changes: M41L/D67N/K70R/M184V/L210W/T215Y/K219E ; measure: EC50 ; strain: Clinical isolate ; cell line: MT-2 ; method: recombinant virus assay ; value: 0.912 µM
CC(C)(O)CCc1c(-c2ccc(O)cc2O)oc2c3c(cc(O)c2c1=O)OC(C)(C)C=C3 ; measure: EC50 ; strain: IIIB ; cell line: MT-4 ; method: cytopathic effect / MTT ; value: >100 µg/mL
Cc1cn([C@H]2C[C@H](N=[N+]=[N-])[C@@H](CO)O2)c(=O)[nH]c1=O ; changes: RT-K65R H221Y ; measure: EC50 ; strain: Site-directed mutant ; cell line: MT-2 ; method: cytopathic effect / XTT ; value: 0.182 µM
O=c1c(O)c(-c2ccc(O)cc2O)oc2cc(O)cc(O)c12 ; measure: EC50 ; strain: IIIB ; cell line: MT-4 ; method: MTT ; value: >500 µg/mL
Nc1nc(=O)n([C@@H]2CS[C@H](CO)O2)cc1F ; changes: M41L/D67N/K70R/K103N/L210W/T215F/K219Q ; measure: EC50 ; strain: Clinical isolate ; cell line: MT-2 ; method: recombinant virus assay ; value: 0.516 µM
COc1c(CC=C(C)C)c(O)cc2oc(=O)c3c4ccc(O)cc4oc3c12 ; measure: EC50 ; strain: IIIB ; cell line: MT-4 ; method: MTT ; value: >20 µg/mL
CC(C)(C)OC(=O)N[C@@H](Cc1ccccc1)[C@H](O)CNC[C@@H](O)[C@H](Cc1ccc(OCC(=O)N2CCOCC2)cc1)NC(=O)OC(C)(C)C ; changes: PR-G48V A71T V82A ; measure: EC50 ; strain: RF ; cell line: MT-2 ; value: 3.72 µM
COc1ccc(-c2oc3c4c(cc(O)c3c(=O)c2CC=C(C)C)OC(C)(C)C=C4)c(OC)c1 ; measure: EC50 ; strain: IIIB ; cell line: MT-4 ; method: cytopathic effect / MTT ; value: >500 µg/mL
C[C@H](Cn1cnc2c(N)ncnc21)OCP(=O)(O)O ; changes: E138K ; measure: EC50 ; strain: LAI ; cell line: TZM-bl ; value: 6.6 µM
COc1ccc(Oc2coc3cc(OC)c(CC=C(C)C)c(O)c3c2=O)c(OC)c1 ; measure: EC50 ; strain: IIIB ; cell line: MT-4 ; method: cytopathic effect / MTT ; value: >100 µg/mL
COc1ccc(CN(CCN2CCCCC2)CC2CCCN(C3CCCC3)C2)cc1O ; measure: EC50 ; strain: NL4-3 ; cell line: 293T ; method: luciferase / cell fusion ; value: 7.9 µM

For reference, 5 entries again:

compound | changes | measure | strain | cell line | method | value
COc1ccc(CN(CCN2CCCCC2)CC2CCCN(C3CCCC3)C2)cc1O |  | EC50 | NL4-3 | 293T | luciferase / cell fusion | 7.9 µM
Cc1ccnc2c1NC(=O)c1cccnc1N2C1CC1 | Y181C | EC50 | NL4-3 | C8166 | antigen | 4.896 µM
CC(C)(C)OC(=O)N[C@@H](Cc1ccccc1)[C@H](O)CNC[C@@H](O)[C@H](Cc1ccccc1)NC(=O)C(C)(O)C(C)(C)C |  | EC50 | RF | MT-2 | p24 | 0.01 µM
CC(C)CN(C[C@@H](O)[C@H](Cc1ccccc1)NC(=O)O[C@H]1CCOC1)S(=O)(=O)c1ccc(N)cc1 | PR-D30N N88D | EC50 | NL4-3 | MT-4 | p24 | <0.04 µM
Nc1nc(=O)n([C@@H]2CS[C@H](CO)O2)cc1F | RT-K65R | EC50 | Site-directed mutant | MT-2 | cytopathic effect / XTT | 8.5 µM

An empty or dashed field is not shown. Rows are shuffled and stem from different studies.